Pooled drug test results. Numbers come from NIAID ChemDB, via PubChem.

Shared fields: growth or infection tests; agent: HIV-2; cell line: CEM + CEM TK-; endpoint: EC50

ECn is the concentration giving n% inhibition of infection, replication or growth.

smiles	strain or isolate	read by	value
COC(=O)[C@H](C)NP(=O)(OC[C@@H]1C=C[C@H](n2cc(C)c(=O)[nH]c2=O)O1)Oc1ccccc1	ROD		0.075 µM
COC(=O)CNP(=O)(OC[C@@H]1C=C[C@H](n2cc(C)c(=O)[nH]c2=O)O1)Oc1ccccc1	ROD	cytopathic effect / trypan blue	7 µM
O=c1[nH]c(=O)n([C@H]2C=C[C@@H](CO)O2)cc1I	ROD	syncytia	>50 µM
COC(=O)CCCCCCNP(=O)(OC[C@@H]1C=C[C@H](n2cc(C)c(=O)[nH]c2=O)O1)Oc1ccccc1	ROD	cytopathic effect / trypan blue	>250 µM
COC(=O)C(C)NP(=O)(OC[C@@H]1C=C[C@H](n2cc(F)c(=O)[nH]c2=O)O1)Oc1ccccc1	ROD	syncytia	100 µM
CCC[C@H](NP(=O)(OC[C@@H]1C=C[C@H](n2cc(C)c(=O)[nH]c2=O)O1)Oc1ccccc1)C(=O)OC			0.4 µM
CCOC(=O)[C@H](C)NP(=O)(OC[C@@H]1C=C[C@H](n2cc(C)c(=O)[nH]c2=O)O1)Oc1ccccc1		cytopathic effect / microscopy	0.07 µM
Cc1cn([C@H]2C=C[C@@H](CO)O2)c(=O)[nH]c1=O			>10 µM
COC(=O)CCNP(=O)(OC[C@@H]1C=C[C@H](n2cc(C)c(=O)[nH]c2=O)O1)Oc1ccccc1	ROD	cytopathic effect / trypan blue	>250 µM
COC(=O)[C@H](C)NP(=O)(OC[C@@H]1C=C[C@H](n2cc(C)c(=O)[nH]c2=O)O1)Oc1ccccc1			0.075 µM
COC(=O)[C@H](C)NP(=O)(OC[C@@H]1C=C[C@H](n2cc(C)c(=O)[nH]c2=O)O1)Oc1ccccc1	ROD	cytopathic effect / trypan blue	0.075 µM
COC(=O)CNP(=O)(OC[C@@H]1C=C[C@H](n2cc(C)c(=O)[nH]c2=O)O1)Oc1ccccc1			7 µM
CC(=O)Oc1ccccc1COP(=O)(OCc1ccccc1OC(C)=O)OC[C@@H]1C=C[C@H](n2cc(C)c(=O)[nH]c2=O)O1			0.48 µM
CC(C)(C)C(=O)OC[C@@H]1C=C[C@H](n2cc(Cl)c(=O)[nH]c2=O)O1	ROD	syncytia	≥50 µM
COC(=O)[C@H](C)NP(=O)(OC[C@@H]1C=C[C@H](n2cc(C)c(=O)[nH]c2=O)O1)Oc1ccccc1	ROD	syncytia	0.075 µM

The last 2 rows once more:

smiles,strain or isolate,read by,value
CC(C)(C)C(=O)OC[C@@H]1C=C[C@H](n2cc(Cl)c(=O)[nH]c2=O)O1,ROD,syncytia,≥50 µM
COC(=O)[C@H](C)NP(=O)(OC[C@@H]1C=C[C@H](n2cc(C)c(=O)[nH]c2=O)O1)Oc1ccccc1,ROD,syncytia,0.075 µM

Neighbouring rows are from separate reports. An empty or dashed field is not shown.